Values from PubChem BioAssay AID624099 (ICCB-Longwood, 2012)
Here is an unselected part of about 21,000 reagents. 497 of all reagents (2.4%) were called active. 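Higher z means weaker E2 silencing; only reporter increases were scored, and knock-downs that hurt cell survival may mask genuine repressor factors.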 The numbers tell different reagents against one gene apart. Reagent sequences are not shown.

- Assay: 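Human genes that papillomavirus E2 requires to repress the HPV18 LCR promoter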 (primary screen)
- Cell system: human C33A cervical carcinoma cells (HPV-negative) stably expressing BPV1 E2 and an HPV18 LCR luciferase reporter
- Reagent: siRNA pool against human genes, 40 nM
- Timing: 72 h
- Read-out: 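HPV18 LCR reporter light per well, converted to plate-wise z-scores that exclude control wells, and averaged over triplicate plates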
- Reading the numbers: mean z-score and z-score: higher = stronger reporter signal, weaker E2 silencing
- Hit rule: 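Hit if mean z-score reaches 2 and two or more of three replicate z-scores also reach 2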

gene symbol,reagent no.,mean z-score,"z-score, replicate A","z-score, replicate B","z-score, replicate C",activity call
TMEM147 (transmembrane protein 147),1,-1,-1,-1.08,-0.94,inactive
ZNF334 (zinc finger protein 334),1,0.89,0.21,0.66,1.81,inactive
MT1A (metallothionein 1A),1,1.25,1.52,1.56,0.68,inactive
MYO18A (myosin XVIIIA),1,0.48,0.47,0.64,0.33,inactive
MYO18A (myosin XVIIIA),2,0.18,-0.07,0.37,0.24,inactive
CCL26 (C-C motif chemokine ligand 26),1,1.58,1.72,1.6,1.4,inactive
CRIP1 (cysteine rich protein 1),1,0.53,0.47,0.64,0.48,inactive
ATP5F1A (ATP synthase F1 subunit alpha),1,0.03,0.11,-0.03,0.02,inactive
CEBPZ (CCAAT enhancer binding protein zeta),1,-0.73,-0.97,-0.55,-0.67,inactive
"SH3GL3 (SH3 domain containing GRB2 like 3, endophilin A3)",1,1.38,1.51,1.74,0.88,inactive
AQP11 (aquaporin 11),1,1.57,,1.51,1.62,inactive
FXYD1 (FXYD domain containing ion transport regulator 1),1,1.61,1.6,1.21,2.01,inactive
CGB8 (chorionic gonadotropin subunit beta 8),1,-0.16,-0.03,-0.34,-0.12,inactive
C3orf70 (chromosome 3 open reading frame 70),1,1.02,1.08,0.82,1.15,inactive
SCNN1G (sodium channel epithelial 1 subunit gamma),1,0.66,0.45,0.97,0.57,inactive
THNSL1 (threonine synthase like 1),1,0.05,0.2,-0.35,0.3,inactive
BAGE3 (BAGE family member 3),1,-1.51,-1.79,-1.18,-1.55,inactive
FUT5 (fucosyltransferase 5),1,-0.22,-0.21,0.03,-0.47,inactive
LOC390256 (retired record),1,0.69,1.03,0.41,0.61,inactive
ZNF75A (zinc finger protein 75A),1,0.51,0.46,0.67,0.39,inactive
LINC02120 (long independently transcribed non-coding RNA 2120),1,1.45,1.37,1.44,1.54,inactive
DCLRE1C (DNA cross-link repair 1C),1,-0.28,-0.35,-0.28,-0.21,inactive
NSUN7 (NOP2/Sun RNA methyltransferase family member 7),1,0.21,0.07,0.27,0.28,inactive
GM2A (ganglioside GM2 activator),1,1.74,1.75,1.8,1.68,inactive
RASD1 (ras related dexamethasone induced 1),1,-0.2,-0.49,-0.25,0.16,inactive
JAKMIP2 (janus kinase and microtubule interacting protein 2),1,-0.78,-0.59,-0.83,-0.93,inactive
TMEM184A (transmembrane protein 184A),1,-1.6,-1.76,-1.78,-1.27,inactive
"PNPLA6 (patatin like domain 6, lysophospholipase)",1,0.48,0.11,0.94,0.39,inactive
CST6 (cystatin E/M),1,0.82,1.26,0.61,0.58,inactive
TXNRD1 (thioredoxin reductase 1),1,-0.34,0.13,-0.44,-0.72,inactive
COL4A3 (collagen type IV alpha 3 chain),1,0.04,0.36,-0.09,-0.16,inactive
HTT (huntingtin),1,-1.15,-1.08,-1.12,-1.24,inactive
GRIN2B (glutamate ionotropic receptor NMDA type subunit 2B),1,0.47,0.41,0.68,0.3,inactive
CNIH3 (cornichon family AMPA receptor auxiliary protein 3),1,-1.32,-1.56,-1.11,-1.29,inactive
RNF167 (ring finger protein 167),1,0.06,0.3,-0.06,-0.07,inactive
GPR17 (G protein-coupled receptor 17),1,-0.95,-0.81,-0.83,-1.21,inactive
TBPL1 (TATA-box binding protein like 1),1,-0.07,-0.04,-0.02,-0.14,inactive
ACE2 (angiotensin converting enzyme 2),1,0.94,1.39,0.85,0.58,inactive
GNG4 (G protein subunit gamma 4),1,-0.33,-0.43,-0.37,-0.19,inactive
TGFBR3 (transforming growth factor beta receptor 3),1,-0.05,-0.09,0.19,-0.25,inactive
NID2 (nidogen 2),1,0.33,0.44,0.65,-0.11,inactive
RTL5 (retrotransposon Gag like 5),1,0.06,0.16,-0.03,0.04,inactive
KLHL25 (kelch like family member 25),1,0.73,0.74,0.85,0.59,inactive
MCMDC2 (minichromosome maintenance domain containing 2),1,0.53,0.46,0.77,0.35,inactive
LOC400840 (retired record),1,0.14,0.02,0.19,0.21,inactive
CDHR5 (cadherin related family member 5),1,0.25,0.39,0.37,-0.01,inactive
NKIRAS1 (NFKB inhibitor interacting Ras like 1),1,-0.69,-0.76,-0.51,-0.8,inactive
TPD52L2 (TPD52 like 2),1,0.18,0.17,0.11,0.27,inactive
MC1R (melanocortin 1 receptor),1,-1.4,-1.71,-1.34,-1.15,inactive
TP53INP1 (tumor protein p53 inducible nuclear protein 1),1,0.05,-0.04,-0.03,0.23,inactive
IDUA (alpha-L-iduronidase),1,1.53,1.43,2.01,1.16,inactive
KDM5A (lysine demethylase 5A),1,-1.16,-1.09,-1.27,-1.14,inactive
RBMY1J (RNA binding motif protein Y-linked family 1 member J),1,0.03,0.06,-0.11,0.15,inactive
MSS51 (MSS51 mitochondrial translational activator),1,-0.24,-0.35,-0.12,-0.24,inactive
IL17B (interleukin 17B),1,1.08,1.06,1.08,1.09,inactive
OR2T1 (olfactory receptor family 2 subfamily T member 1),1,-0.41,-0.38,-0.12,-0.72,inactive
PHF1 (PHD finger protein 1),1,2.11,2.1,2.36,1.88,active

Active calls, of those listed so far:
gene symbol,reagent no.,mean z-score,"z-score, replicate A","z-score, replicate B","z-score, replicate C",activity call
PHF1 (PHD finger protein 1),1,2.11,2.1,2.36,1.88,active
